Data as given in the CheMixHub viscosity set.
± gives the uncertainty stated by the source.

Assay: xn = mol fraction of the nth substance listed
Conditions: 101 kPa, x1 = 0.8082

For `CCCCOCCCC` + CCCCCCCCC, which viscosity (298.15 K) is on record?
Its viscosity is 0.6432 ± 0.0082 mPa·s.

What about the viscosity (308.15 K) of the same compound?
The viscosity was 0.5847 ± 0.0075 mPa·s.

What about the viscosity (318.15 K) of the same compound?
The viscosity was 0.5159 ± 0.0066 mPa·s.
